Results: publication PMC7263513 (bioRxiv, 2020)

Target: SARS-CoV-2 receptor binding domain (RBD) (Severe acute respiratory syndrome …)
Assay: cell-based or functional assay

B1: C127 (antibody, V domains shown)
VH: QVQLVQSGAEVKKPGASVKVSCKASGYTFTGYYMHWVRQAPGQGLEWMGWINPNSGGTNYAQKFQGRVTMTRDTSISTAYMELSRLRSDDTAVYYCATAHPRRIQGVFFLGPGVWGQGTTVTVSS
VL: not shown
IC50 of neutralisation of SARS-CoV-2 pseudovirus (293T_(ACE2) cells): 0.0687 µg/mL
